{"source": "paper PMC3677620", "about": "“Cytotoxicity and In Vitro Antileishmanial Activity of Antimony (V), Bismuth (V), and Tin (IV) Complexes of Lapachol” (Bioinorganic Chemistry and Applications, 2013)", "key": {"murine macrophages": {"tested_on": "murine macrophages", "experiment": "Cytotoxicity test, MTT method, murine peritoneal macrophages", "settings": "MLD50/IC50 ratio, murine macrophages versus L. amazonensis", "description": "Animals were kept in the Animal Facility of the Centro de Pesquisas René Rachou/FIOCRUZ in strict accordance to the Guide for the Care and Use of Experimental Animals. The procedures were approved by the Internal Ethics Committee in Animal Experimentation (CEUA) of Fundação Oswaldo Cruz (FIOCRUZ), Brazil (Protocol L-042/08). Mice were euthanized with CO2 in an induction chamber prior to macrophage removal. Balb/c mice were injected intraperitoneally with 2 mL of 3% sodium thioglycollate medium. After 72 h, peritoneal macrophages were removed by washing with cold RPMI 1640 medium and enriched by adherence to round glass coverslips (13 mm) placed in a 4-well culture plate. Cells (2 × 10^5 cells/well) were cultured (37°C, 5% CO2, 18 h) in RPMI supplemented with 10% heat-inactivated FBS (fetal bovine serum) prior to infection with parasites. Macrophages were exposed to stationary phase promastigotes (2 × 10^6/well) at a final ratio of 1 : 10. The plates were incubated at 37°C, 5% CO2, for 5 h in BOD to allow internalization of parasites. Then, the medium was removed for the remaining noninternalized parasites. Negative control included only infected macrophages and medium. Incubations were tested in duplicate in two independent experiments. The substances were serial diluted with RPMI 1640 medium supplemented with 10% FBS at five different concentrations (50 → 3.1 μg/mL). For compounds (3) and (6), the dilution was 10 → 0.016 μg/mL. […]\nThe cell lineage HepG2 A16 was derived from a human hepatocellular carcinoma cell line HepG2 (ATCC HB-8065) and obtained from America Type Culture Collection line (ATCC). […] Cytotoxicity was determined using the MTT method (3-(4,5-dimethylthiazol-2-yl)-2,5-diphenyl tetrazolium bromide) (Sigma). […] The reaction was read spectrophotometrically (Spectramax M5, Molecular Devices, San Francisco, CA) with a 570 nm filter and a background of 670 nm. […] The minimum dose that killed 50% of the cells (MLD50) was determined, and the values were plotted to generate dose-response curves using Microcal Origin Software (Northampton, MA, USA)."}, "HepG2 cells": {"tested_on": "HepG2 cells", "experiment": "Cytotoxicity test, MTT method, HepG2 cells", "settings": "MLD50/IC50 ratio, HepG2 cells versus L. amazonensis", "description": "Balb/c murine peritoneal macrophages were obtained as described above. Cytotoxicity was determined using the MTT method (3-(4,5-dimethylthiazol-2-yl)-2,5-diphenyl tetrazolium bromide) (Sigma). HepG2 cells were kept in RPMI medium supplemented with 10% FBS, and confluent monolayers were trypsinized, washed in RPMI, and transferred to 96-well microtiter plates (4 × 10^4 cells/well) for 16–18 h. Murine macrophages were used in the concentration 2 × 10^5 cells/well in 96-well microtiter plates. The compounds were serial diluted in different concentrations (10 → 0.16 mg/mL). In both tests, the medium was removed, and the compounds were incubated for 24 h (37°C, 5% CO2). Colorimetric reaction was developed following the incubation with MTT (37°C, 5% CO2, 4 h) and addition of acidified isopropanol. The reaction was read spectrophotometrically (Spectramax M5, Molecular Devices, San Francisco, CA) with a 570 nm filter and a background of 670 nm. Incubations were tested in triplicate in two independent experiments. The minimum dose that killed 50% of the cells (MLD50) was determined, and the values were plotted to generate dose-response curves using Microcal Origin Software (Northampton, MA, USA)."}}}
{"compound": "(Lp)(Ph3Sn) [(3)]", "values": [{"measurement": "SI: selective index, macrophages", "setting": "murine macrophages", "value": 9.41}, {"measurement": "SI: selective index, HepG2", "setting": "HepG2 cells", "value": 70.65}]}
{"compound": "[Cl][Sb]([Cl])([c]1ccccc1)([c]1ccccc1)[c]1ccccc1", "note": "[(5), triphenylantimony dichloride]", "values": [{"measurement": "SI: selective index, HepG2", "setting": "HepG2 cells", "value": 13.56}]}
{"compound": "[Cl][Bi]([Cl])([c]1ccccc1)([c]1ccccc1)[c]1ccccc1", "note": "[(4), Triphenylbismuth dichloride]", "values": [{"measurement": "SI: selective index, macrophages", "setting": "murine macrophages", "value": 4.67}, {"measurement": "SI: selective index, HepG2", "setting": "HepG2 cells", "value": 34.03}]}
{"compound": "(Lp)(Ph3Sb)OH [(2)]", "values": [{"measurement": "SI: selective index, HepG2", "setting": "HepG2 cells", "value": 17.81}]}
{"compound": "[Cl][Sn]([c]1ccccc1)([c]1ccccc1)[c]1ccccc1", "note": "[(6), triphenyltin chloride]", "values": [{"measurement": "SI: selective index, macrophages", "setting": "murine macrophages", "value": 7.30}, {"measurement": "SI: selective index, HepG2", "setting": "HepG2 cells", "value": 120.35}]}
